Anti-infective test results gathered from many reports (values: NIAID ChemDB through PubChem).

All rows: tests in culture; agent: HIV-1

Blank or dashed fields: not listed here.

smiles	method	mutations	cells	read-out	conditions	strain or isolate	result
O=c1[nH]cnc2c1ncn2[C@H]1CC[C@@H](CO)O1	β-galactosidase	RT-K65R	MAGI (CCR5) + MAGI	EC50		HXB2	10 µM
CC(C)(C)NC(=O)[C@@H]1C[C@@H]2CCCC[C@@H]2CN1C[C@@H](O)[C@H](Cc1ccccc1)NC(=O)[C@H](CC(N)=O)NC(=O)c1ccc2ccccc2n1	p24	PR-M46I L63P V82T I84V	MT-4	EC95		NL4-3	0.2 µM
Cc1cc(C#Cc2ccccc2)cc(C)c1Oc1ccnc(Nc2ccc(C#N)cc2)n1	MTT	RES056	MT-4	EC50		IIIB	8.202 µM
Cc1cn([C@H]2C=C[C@@H](CO)O2)c(=O)[nH]c1=O	p24	RT-Q151M	PBMC	EC50		Recombinant	0.05 µM
Cc1cn([C@H]2C[C@H](N=[N+]=[N-])[C@@H](CO)O2)c(=O)[nH]c1=O	p24		PBMC	EC50		8848 CLADE C CLADE C	0.033 µM
CCCOc1ccc(Cc2cc(C3CCN(C[C@H]4CN([C@@H](C(=O)O)[C@@H](C)CC)C[C@@H]4c4cccc(F)c4)CC3)n(CC)n2)cc1	β-galactosidase		HeLa	EC50	50% human serum	BaL	<0.1 µM
Cc1ccnc2c1NC(=O)c1cccnc1N2C1CC1	cytopathic effect / XTT	RT-Y181C	CEM + CEM-SS	EC50		UC38-R(RT-Y181C	13.8 µM
COC(=O)[C@H](C)NP(=O)(OC[C@@H]1C=C[C@H](n2cc(C)c(=O)[nH]c2=O)O1)Oc1ccc(Br)cc1	p24	RT-M41L D67N K70R T215Y K219Q	PBMC	EC50		G190-6 Clinical isolate ZDV-resistant	0.0028 µM
CCCc1cc(=O)oc2c3c(c4c(c12)OC(C)(C)C=C4)O[C@@H](C)[C@H](C)[C@@H]3O	RT activity		PBMC	EC50		ROJO(SI)	1.5 µM
Cc1cn([C@H]2C[C@H](N=[N+]=[N-])[C@@H](CO)O2)c(=O)[nH]c1=O	p24	RT-D67N T69N K70R K103N Y181C T215F K219E	PBMC	EC50		X165-8 Clinical isolate ZDV-resistant	0.9 µM
Cc1cn([C@H]2C[C@H](N=[N+]=[N-])[C@@H](CO)O2)c(=O)[nH]c1=O	cytopathic effect / XTT		CEM + CEM-SS	EC50		MN	0.001 µM
CCc1c(Sc2ccccn2)n(COCc2ccccc2)c(=O)[nH]c1=O	cytopathic effect / XTT	RT-V106I	CEM + CEM-SS	EC50		NL4-3	0.92 µM
Cc1cc(C#Cc2cccc(N)c2)cc(C)c1Oc1ccnc(NC2CCN(Cc3cccc(C(N)=O)c3)CC2)n1	MTT	Y188L	MT-4	EC50		IIIB	0.2 µM
Cc1cn([C@H]2C[C@H](N=[N+]=[N-])[C@@H](CO)O2)c(=O)[nH]c1=O	cytopathic effect / XTT	RT-L100I	CEM + CEM-SS	EC50		NL4-3	0.003 µM
C#C[C@@]1(CO)C=C[C@H](n2cc(C)c(=O)[nH]c2=O)O1	cytopathic effect / MTT		MT-2	EC50		IIIB	0.25 µM
O=C1N(Cc2ccc(CO)cc2)[C@H](Cc2ccccc2)[C@H](O)[C@@H](O)[C@@H](Cc2ccccc2)N1Cc1ccc(CO)cc1	p24	PR-L63P V82T	MT-4	EC50		NL4-3	<0.4 µM
C1CNCCNCCCN(CCCN2CCCNCCNCCCNCC2)CCNC1	p24 / ELISA		MT-4	EC50		A012A	<373 µM
Cc1cn([C@H]2C[C@H](N=[N+]=[N-])[C@@H](CO)O2)c(=O)[nH]c1=O	p24		PBMC	EC50		477 clinical isolates delavirdine-resistant	<0.3 µM
CCc1cc(NCc2nc3c(C)ccc(C)c3o2)c(=O)[nH]c1C	p24		MT-4	EC50		IIIB	<0.025 µM
Cc1cc(S(N)(=O)=O)ccc1NC(=O)COc1ccc(Cl)cc1C(=O)c1cc(C#N)cc([N+](=O)[O-])c1		V106A	HeLa	EC50			0.0231 µM
CCCc1cc(=O)oc2c3c(c4c(c12)OC(C)(C)C=C4)O[C@H](C)[C@@H](C)[C@@H]3O	XTT		CEM + CEM-SS	EC50		RF	0.1 µM
Cc1cc(S(N)(=O)=O)ccc1NC(=O)COc1ccc(Cl)cc1C(=O)c1cc(N)cc(C#N)c1		K103N	HeLa	EC50			0.01 µM
Cc1cn([C@H]2C[C@H](N=[N+]=[N-])[C@@H](CO)O2)c(=O)[nH]c1=O	XTT	RT-K103N	CEM + CEM-SS	EC50		NL4-3	0.004 µM
Cc1cc(S(N)(=O)=O)ccc1NC(=O)COc1ccc(Cl)cc1C(=O)c1cc(C#N)cc(C(=O)O)c1		WTRVA	HeLa	EC50			0.93 µM
CC(C)=CCN1Cc2cc(Cl)cc3[nH]c(=S)n(c23)C[C@@H]1C	p24	RT-L100I	CEM	EC50		IIIB	1.7 µg/mL
Cc1cn([C@H]2C[C@H](N=[N+]=[N-])[C@@H](CO)O2)c(=O)[nH]c1=O	cytopathic effect / XTT		CEM + CEM-SS	EC50		RF	0.01 µM
CC[C@@H](C)[C@H](C(=O)O)N1C[C@H](CN2CCC(c3cc(Cc4ccc(OC)c(OC)c4)nn3CC)CC2)[C@@H](c2cccc(F)c2)C1	β-galactosidase		HeLa	EC50		BaL	<0.0004 µM
C=C(C)OC(=O)N1c2cc(Cl)ccc2NC(=S)C1(C)C	p24	RT-M184V	CEM	EC50		IIIB	0.003 µg/mL
CC(=O)Oc1ccc(/C=C/C(=O)O[C@@H](C(=O)O)[C@@H](OC(=O)/C=C/c2ccc(OC(C)=O)c(OC(C)=O)c2)C(=O)O)cc1OC(C)=O		AMD2763-resistant	MT-4	EC50		NL4-3	>74 µM
Cc1ccnc2c1NC(=O)c1cccnc1N2C1CC1	syncytia		PBL	EC50		IIIB	0.006 µg/mL
Cc1ccnc2c1NC(=O)c1cccnc1N2C1CC1	XTT	RT-T139I	CEM + CEM-SS	EC50		Calanolide A-resistant (RT T139I)	0.03 µM
C1CNCCNCCCN[C@H]([C@@H]2CNCCCNCCNCCCN2)CNC1	antigen		HuT-78 + HUT 78	EC90		IIIB	1.45 µM
Cc1ccnc2c1NC(=O)c1cccnc1N2C1CC1	GFP		MT4-GFP	EC50			0.219 µM
CCn1nc(Cc2cc(C(F)(F)F)cc(C(F)(F)F)c2)cc1C1CCN(C[C@H]2CN([C@@H](C(=O)O)C(C)(C)C)C[C@@H]2c2cccc(F)c2)CC1	β-galactosidase		HeLa	EC90	50% human serum	BaL	>0.3 µM
Cc1cn([C@@H]2O[C@H](CO[Si](C)(C)C(C)(C)C)C3(OS(=O)(=O)C=C3N)[C@H]2O[Si](C)(C)C(C)(C)C)c(=O)n(C)c1=O	cytopathic effect	RT-V106A	CEM	EC50		IIIB	0.23 µg/mL
CCn1nc(Cc2cc(C(F)(F)F)cc(C(F)(F)F)c2)cc1C1CCN(C[C@H]2CN([C@@H](C(=O)O)C(C)C)C[C@@H]2c2cccc(F)c2)CC1	β-galactosidase		HeLa	EC50		BaL	<0.1 µM
Cc1cn([C@H]2C=C[C@@H](CO)O2)c(=O)[nH]c1=O	plaque count		CD4+HELA + HeLa	EC50		RTMC	1.7 ± 0.28 µM
Cc1cn([C@H]2C[C@H](N=[N+]=[N-])[C@@H](CO)O2)c(=O)[nH]c1=O	p24		MT-4	EC95		rHXB2	0.025 µM
CCn1nc(Cc2ccc(C(C)C)cc2)cc1C1CCN(C[C@H]2CN([C@@H](C(=O)O)C(C)(C)C)C[C@@H]2c2cccc(F)c2)CC1	β-galactosidase		HeLa	EC90		BaL	0.0004 µM
CC(C)CN(C[C@@H](O)[C@H](Cc1ccccc1)NC(=O)[C@@H](NC(=O)CNCc1cccc(F)c1)C(C)(C)C)S(=O)(=O)c1ccc(N)cc1	virus yield		PBMC	EC90		IIIB	0.04 µM
CC[C@H](C)[C@H](C(=O)O)N1C[C@H](CN2CCC(c3cc(Cc4ccc(OC)c(C#N)c4)nn3CC)CC2)[C@@H](c2cccc(F)c2)C1	β-galactosidase		HeLa	EC90		BaL	<0.00014 µM
O=C1N(Cc2ccc(CO)cc2)[C@H](Cc2ccccc2)[C@H](O)[C@@H](O)[C@@H](Cc2ccccc2)N1Cc1ccc(CO)cc1	p24		PBMC	EC50		Clinical isolate D3	0.05 µM
O=c1[nH]cnc2c1ncn2[C@H]1CC[C@@H](CO)O1	p24		MT-4	EC50		IIIB	<6.25 µM
O=c1[nH]cnc2c1ncn2[C@H]1CC[C@@H](CO)O1	syncytia	RT-E138K	CEM	EC50		IIIB	12 ± 11.3 µM
CCC[C@@]1(CCc2ccccc2)CC(O)=C([C@H](CC)c2cccc(NS(=O)(=O)c3ccc(C(F)(F)F)cn3)c2)C(=O)O1	p24		PBMC	EC50		Isolate N. Amer 4	<0.15 µM
CCn1nc(Cc2ccc(OC(C)(C)C)cc2)cc1C1CCN(C[C@H]2CN([C@@H](C(=O)O)C(C)(C)C)C[C@@H]2c2cccc(F)c2)CC1	β-galactosidase		HeLa	EC50		BaL	<0.011 µM
Cc1cc(S(N)(=O)=O)ccc1NC(=O)COc1ccc(Cl)cc1C(=O)c1cc(C#N)cc(CO)c1		K103N	HeLa	EC50			0.0045 µM
CC(=O)N1CCC(C(=O)N(CCCN2CCC(Cc3ccc(C(N)=O)cc3)CC2)c2ccc(C)c(Cl)c2)CC1	p24		PBMC	EC50		CTV R5 clinical isolate	0.00072 µM
Cc1cc(OC[C@H]2CNCCO2)ccc1NC(=O)COc1ccc(Cl)cc1C(=O)c1cc(C#N)cc(OC(F)F)c1		K103N	HeLa	EC50			0.0003 µM
Cc1ccnc2c1NC(=O)c1cccnc1N2C1CC1	p24	RT-M184I	CEM	EC50		IIIB	0.021 µg/mL
Cc1ccnc2c1NC(=O)c1cccnc1N2C1CC1	cytopathic effect / XTT	RT-V179D	CEM + CEM-SS	EC50		NL4-3	0.03 µM
CC(C)=CCOc1cc(NC(=S)c2ccoc2C)ccc1Cl	cytopathic effect	RT-V179D	CEM	EC50		IIIB	0.006 µg/mL
Cc1ccnc2c1NC(=O)c1cccnc1N2C1CC1	MTT	RES056	MT-4	EC50		IIIB	2.221 µM
O=c1[nH]cnc2c1ncn2[C@H]1CC[C@@H](CO)O1	p24	RT-K65R L74V M184V Y115F	MT-4	EC90		XM-ABC-resistant	52 µM
Cc1cn([C@H]2C[C@H](N=[N+]=[N-])[C@@H](CO)O2)c(=O)[nH]c1=O	luciferase	RT-M41L A62V S68N G112S V118I M184V	HeLa	EC50		Recombinant	0.00608 µM
CCOc1cccc(Cc2cc(C3CCN(C[C@H]4CN([C@@H](C(=O)O)[C@@H](C)CC)C[C@@H]4c4cccc(F)c4)CC3)n(CC)n2)c1	β-galactosidase		HeLa	EC50	50% human serum	BaL	<0.1 µM
CC[C@H](C)[C@@H](C(=O)O)n1sc2ccccc2c1=O	p24 / RT activity		MT-4	EC50		PR-L10R M46I L63P V82T I84V	2.2 µM
Cc1c(O)cccc1C(=O)N[C@@H](CSc1ccccc1)[C@H](O)CN1C[C@H]2CCCC[C@H]2C[C@H]1C(=O)NC(C)(C)C	p24	PR-M46I L63P A71V V82F I84V	PBMC	EC90		HXB2	0.45 µM
CCOC(=O)c1cc(C#N)cc(C(=O)c2cc(Cl)ccc2OCC(=O)Nc2ccc(S(N)(=O)=O)cc2C)c1		K103N	HeLa	EC50			0.0012 µM
N#Cc1cc2[nH]c3ccccc3c2n(-c2ccc([N+](=O)[O-])cc2)c1=O	luciferase	RT-A62T V118I M184V	HeLa	EC50		Recombinant	1.11 µM
CCO/N=C(\c1ccc(Br)cc1)C1CCN(C2(C)CCN(C(=O)c3c(C)cc[n+]([O-])c3C)CC2)CC1	p24		PBMC	EC50		JRFL R5 CLADE B	0.00245 µM
CON(C)C(=O)c1cc(C#N)cc(C(=O)c2cc(Cl)ccc2OCC(=O)Nc2ccc(S(N)(=O)=O)cc2C)c1		K103N	HeLa	EC50			0.013 µM
Cc1cn([C@H]2C[C@H](N=[N+]=[N-])[C@@H](CO)O2)c(=O)[nH]c1=O	p24	RT-T69SSS L210W T215Y	PBMC	EC50		XM-T69SSS	<56 µM
Cc1occc1C(=S)Nc1ccc(Cl)c(/C=N/OC(C)(C)C)c1	p24	RT-L100I	CEM	EC50		IIIB	0.085 µg/mL
Cn1c2ccccc2c2c1cc(C#N)c(=O)n2-c1ccc([N+](=O)[O-])cc1	luciferase	RT-M41L D67N T69N K70R T215F K219E	HeLa	EC50		NRTI resistant	0.019 µM
O=c1[nH]cnc2c1ncn2[C@H]1CC[C@@H](CO)O1	plaque count	RT-L74V	CD4+HELA + HeLa	EC50		HXB2	12 µM
Cc1cn([C@H]2C[C@H](N=[N+]=[N-])[C@@H](CO)O2)c(=O)[nH]c1=O	p24	RT-T215Y	PBMC	EC50		Recombinant	~0.02 µM
CC(C)OC(=O)OCOP(=O)(CO[C@H](C)Cn1cnc2c(N)ncnc21)OCOC(=O)OC(C)C	GFP	A502V	TZM-gfp	EC50		NL4-3	0.12 µM
CC(C)(C)NC(=O)[C@@H]1C[C@@H]2CCCC[C@@H]2CN1C[C@@H](O)[C@H](Cc1ccccc1)NC(=O)[C@H](CC(N)=O)NC(=O)c1ccc2ccccc2n1	p24	PR-I84V	MT-4	EC90		NL4-3	0.09 µM
CCn1nc(Cc2ccc(C(F)(F)F)cc2)cc1C1CCN(C[C@H]2CN([C@@H](C(=O)O)C(C)C)C[C@@H]2c2cccc(F)c2)CC1	β-galactosidase		HeLa	EC50	50% human serum	BaL	<0.1 µM

Neighbouring rows are from separate reports. ECn is the concentration giving n% inhibition of infection, replication or growth.